A mixed list of measured activities; the numbers were collected in NIAID ChemDB.

Common to all: growth or infection tests; species: Mycobacterium avium complex

A number after MIC or MFC names an inhibition level or a share of isolates.

structure | strain | method | endpoint | dose | value
NCC[C@H](O)C(=O)N[C@@H]1C[C@H](N)[C@@H](O[C@H]2O[C@H](CN)[C@@H](O)[C@H](O)[C@H]2O)[C@H](O)[C@H]1O[C@H]1O[C@H](CO)[C@@H](O)[C@H](N)[C@H]1O | TMC 1406 |  | MIC |  | 0.39 µg/mL
CCC1CCN(c2c(F)cc3c(=O)c(C(=O)O)cn(C4CC4)c3c2F)C1 |  |  | MIC90 |  | 8 µg/mL
CN[C@@H]1[C@H](O[C@H]2[C@H](O[C@H]3[C@H](O)[C@@H](O)[C@H](N=C(N)N)[C@@H](O)[C@@H]3N=C(N)N)O[C@@H](C)[C@]2(O)C=O)O[C@@H](CO)[C@H](O)[C@H]1O | Isolate C-46 |  | MIC |  | >400 µg/mL
CN(C)CC1CCN(c2c(F)cc3c(=O)c(C(=O)O)cn(C4CC4)c3c2F)C1 |  |  | MIC90 |  | 2 µg/mL
NC[C@H]1O[C@H](O[C@H]2[C@H](O[C@@H]3O[C@H](CO)[C@@H](O)[C@H]3O)[C@@H](O)[C@H](N)C[C@@H]2N)[C@H](N)[C@@H](O)[C@@H]1O | TMC 1411 |  | MIC |  | 0.19 µg/mL
CN[C@@H]1[C@@H](O)[C@@H](O[C@@H]2[C@@H](O)[C@H](O[C@H]3O[C@H](CN)CC[C@H]3N)[C@@H](N)C[C@H]2N)OC[C@]1(C)O | 20 strains | agar | inhibition | 4 µg/mL | 65%
NC[C@@H]1O[C@H](O[C@H]2[C@@H](O)[C@H](O[C@@H]3[C@@H](O)[C@H](N)C[C@H](N)[C@H]3O[C@H]3O[C@H](CO)[C@@H](O)C[C@H]3N)O[C@@H]2CO)[C@H](N)[C@@H](O)[C@@H]1O[C@H]1O[C@H](CO)[C@@H](O)[C@H](O)[C@@H]1O | TMC 1469 |  | MIC |  | 6.25 µg/mL
CC1CN(c2nc3c(cc2F)c(=O)c(C(=O)O)cn3C(C)(C)C)CCN1 | 14 strains |  | MIC50 |  | 0.5 µg/mL
CO[C@H]1/C=C/O[C@@]2(C)Oc3c(C)c(O)c4c(O)c(c5c(c4c3C2=O)NC2(CCN(CC(C)C)CC2)N=5)=NC(=O)/C(C)=C\C=C\[C@H](C)[C@H](O)[C@@H](C)[C@@H](O)[C@@H](C)[C@H](OC(C)=O)[C@@H]1C | 10 isolates |  | MIC50 |  | 0.25 µg/mL
NC(=O)c1cnccn1 | 713 strains | agar | inhibition | 25 µg/mL | <1%
CO[C@H]1/C=C/O[C@@]2(C)Oc3c(C)c(O)c4c(O)c(c(/C=N/N5CCN(C/C=C/c6ccccc6)CC5)c(O)c4c3C2=O)NC(=O)/C(C)=C\C=C\[C@H](C)[C@H](O)[C@@H](C)[C@@H](O)[C@@H](C)[C@H](OC(C)=O)[C@@H]1C | SK-22 |  | MBC |  | 2 µg/mL
CN[C@@H]1[C@H](O[C@H]2[C@H](O[C@H]3[C@H](O)[C@@H](O)[C@H](N=C(N)N)[C@@H](O)[C@@H]3N=C(N)N)O[C@@H](C)[C@]2(O)C=O)O[C@@H](CO)[C@H](O)[C@H]1O | Isolate 135 |  | MIC |  | 25 µg/mL
COc1c(N2CCNCC2)c(F)cc2c(=O)c(C(=O)O)cn(C3CC3)c12 | 14 strains |  | MIC50 |  | 1 µg/mL
NC[C@@H]1O[C@H](O[C@H]2[C@@H](O)[C@H](O[C@@H]3[C@@H](O)[C@H](N)C[C@H](N)[C@H]3O[C@H]3O[C@H](CO)[C@@H](O)[C@H](O)[C@H]3N)O[C@@H]2CO)[C@H](N)[C@@H](O)[C@@H]1O | TMC 1473 |  | MIC |  | <0.01 µg/mL
CCn1cc(C(=O)O)c(=O)c2cc(F)c(N3CCN4CCC3C4)nc21 | 14 strains |  | MIC50 |  | ≥32 µg/mL
CCn1cc(C(=O)O)c(=O)c2cc(F)c(N3CCC(CNCCO)C3)c(F)c21 |  |  | MIC90 |  | 32 µg/mL
CC(C)N=c1cc2n(-c3ccc(Cl)cc3)c3ccccc3nc-2cc1Nc1ccc(Cl)cc1 | 536/HIV+ |  | MIC |  | 0.25 µg/mL
CC1(CN)CCN(c2c(F)cc3c(=O)c(C(=O)O)cn(C4CC4)c3c2F)C1 |  |  | MIC90 |  | 32 µg/mL
CO[C@H]1/C=C/O[C@@]2(C)Oc3c(C)c(O)c4c(O)c(c5c(c4c3C2=O)NC2(CCN(CC(C)C)CC2)N=5)=NC(=O)/C(C)=C\C=C\[C@H](C)[C@H](O)[C@@H](C)[C@@H](O)[C@@H](C)[C@H](OC(C)=O)[C@@H]1C | 921 |  | MBC |  | 32 µg/mL
C[C@@H]1CN(c2c(F)c(N)c3c(=O)c(C(=O)O)cn(C4CC4)c3c2F)C[C@H](C)N1 | 18 | broth dilution | MIC |  | 1 µg/mL
NC[C@H]1O[C@H](O[C@H]2[C@H](O)[C@@H](O[C@H]3O[C@H](CO)[C@@H](O)[C@H](N)[C@H]3O)[C@H](N)C[C@@H]2N)[C@H](N)[C@@H](O)[C@@H]1O | Isolate 64 |  | MIC |  | 3.13 µg/mL
CC(C)CN1CCN(c2cc3c(cc2F)c(=O)c(C(=O)O)cn3C(C)(C)C)CC1 | 14 strains |  | MIC90 |  | 16 µg/mL
NC[C@@H]1O[C@H](O[C@H]2[C@@H](O)[C@H](O[C@@H]3[C@@H](O)[C@H](N)C[C@H](N)[C@H]3O[C@H]3O[C@H](CO)[C@@H](O)[C@H](O)[C@H]3N)O[C@@H]2CO)[C@H](N)[C@@H](O)[C@@H]1O | SK32/HIV+ |  | MIC |  | 6.25 µg/mL
CCC1CN(c2c(F)cc3c(=O)c(C(=O)O)cn(C4CC4)c3c2OC)CCN1 | 14 strains |  | MIC50 |  | 1 µg/mL
CO[C@H]1/C=C/O[C@@]2(C)Oc3c(C)c(O)c4c(O)c(c5c(c4c3C2=O)NC2(CCN(CC(C)C)CC2)N=5)=NC(=O)/C(C)=C\C=C\[C@H](C)[C@H](O)[C@@H](C)[C@@H](O)[C@@H](C)[C@H](OC(C)=O)[C@@H]1C | 1854-4 |  | MIC |  | 0.25 µg/mL
CCNCC1CCN(c2c(F)cc3c(=O)c(C(=O)O)c4n(c3c2F)CCS4)C1 | 14 strains |  | MIC50 |  | ≥32 µg/mL
CC1COc2c(N3CCN(C)CC3)c(F)cc3c(=O)c(C(=O)O)cn1c23 |  |  | MIC50 |  | 2–16 µg/mL
CC[C@@H](CO)NCCN[C@@H](CC)CO | 1339-3 |  | MBC |  | 15 µg/mL
CC1CN(c2c(F)cc3c(=O)c(C(=O)O)cn(C4CC4)c3c2Br)CC(C)N1 | 14 strains |  | MIC90 |  | 4 µg/mL
Nc1ccc(C(=O)O)c(O)c1 | 155 strains | agar | EC50 |  | >2 µg/mL
CC1CN(c2cc3c(cc2F)c(=O)c(C(=O)O)cn3-c2ccc(F)cc2F)CC(C)N1 | 14 strains |  | MIC90 |  | 8 µg/mL
O=C(O)c1cn(C2CC2)c2c(F)c(N3CC4CCCC(C3)N4)c(F)cc2c1=O |  |  | MIC90 |  | 8 µg/mL

4 of the rows above, restated:

structure | strain | method | endpoint | dose | value
CC(C)N=c1cc2n(-c3ccc(Cl)cc3)c3ccccc3nc-2cc1Nc1ccc(Cl)cc1 | 536/HIV+ |  | MIC |  | 0.25 µg/mL
CC(C)CN1CCN(c2cc3c(cc2F)c(=O)c(C(=O)O)cn3C(C)(C)C)CC1 | 14 strains |  | MIC90 |  | 16 µg/mL
NC[C@@H]1O[C@H](O[C@H]2[C@@H](O)[C@H](O[C@@H]3[C@@H](O)[C@H](N)C[C@H](N)[C@H]3O[C@H]3O[C@H](CO)[C@@H](O)[C@H](O)[C@H]3N)O[C@@H]2CO)[C@H](N)[C@@H](O)[C@@H]1O | TMC 1473 |  | MIC |  | <0.01 µg/mL
NC[C@@H]1O[C@H](O[C@H]2[C@@H](O)[C@H](O[C@@H]3[C@@H](O)[C@H](N)C[C@H](N)[C@H]3O[C@H]3O[C@H](CO)[C@@H](O)C[C@H]3N)O[C@@H]2CO)[C@H](N)[C@@H](O)[C@@H]1O[C@H]1O[C@H](CO)[C@@H](O)[C@H](O)[C@@H]1O | TMC 1469 |  | MIC |  | 6.25 µg/mL

Blank or dashed fields: not listed here. Two numbers with a dash give a range or band. Inhibition is in % at the dose shown (toxicity tests: loss of growth or viability). ECn is the concentration giving n% inhibition of infection, replication or growth. Neighbouring rows are from separate reports.